Values from PubChem BioAssay AID624099 (ICCB-Longwood, 2012)
Shown is an unselected part of about 21,000 reagents tested. 497 of all reagents (2.4%) were called active. 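Higher z means weaker E2 silencing; only reporter increases were scored, and knock-downs that hurt cell survival may mask genuine repressor factors.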

- Purpose: 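Host factors E2 relies on to silence an HPV18 LCR reporter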 (primary screen)
- Cell system: human C33A cervical carcinoma cells (HPV-negative) stably expressing BPV1 E2 and an HPV18 LCR luciferase reporter
- Reagents: siRNA pool against human genes, 40 nM
- Duration: 72 h
- Read-out: 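HPV18 LCR reporter light per well, converted to plate-wise z-scores that exclude control wells, and averaged over triplicate plates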
- Scale: mean z-score and z-score: higher = stronger reporter signal, weaker E2 silencing
- Call rule: 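Mean z ≥ 2 together with z ≥ 2 in two or more of the three replicates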

| gene symbol | mean z-score | z-score, replicate A | z-score, replicate B | z-score, replicate C | outcome |
| --- | --- | --- | --- | --- | --- |
| GDF9 (growth differentiation factor 9) | 0.15 | 0.03 | 0.19 | 0.22 | inactive |
| LOC284788 | 0.3 | 0.18 | 0.38 | 0.35 | inactive |
| NXNL2 (nucleoredoxin like 2) | 2.01 | 2.45 | 2.09 | 1.49 | active |
| FSTL5 (follistatin like 5) | 0.88 | 0.85 | 0.75 | 1.05 | inactive |
| CUL1 (cullin 1) | 0.52 | 0.53 | 0.28 | 0.74 | inactive |
| PDP1 (pyruvate dehydrogenase phosphatase catalytic subunit 1) | 0.75 | 0.8 | 0.66 | 0.78 | inactive |
| C12orf75 (chromosome 12 open reading frame 75) | -0.82 | -1.26 | -0.8 | -0.4 | inactive |
| SLC12A3 | 0.45 | 0.3 | 0.59 | 0.47 | inactive |
| SLC5A10 | 0.61 | 0.72 | 0.45 | 0.66 | inactive |
| NECTIN1 (nectin cell adhesion molecule 1) | -0.91 | -1.08 | -0.69 | -0.94 | inactive |
| OR3A2 (olfactory receptor family 3 subfamily A member 2) | -0.01 | -0.07 | -0.3 | 0.34 | inactive |
| ZNF653 (zinc finger protein 653) | 1.22 | 1.62 | 1.15 | 0.89 | inactive |
| BKGD (beta-keto-L-gulonate decarboxylase) | -0.45 | -0.85 | -0.48 | -0.02 | inactive |
| NOL4L (nucleolar protein 4 like) | -0.68 | -0.56 | -0.95 | -0.55 | inactive |
| LOC401085 (retired record) | -0.35 | -0.12 | -0.3 | -0.64 | inactive |
| WDR36 (WD repeat domain 36) | 0.02 | 0.17 | 0.18 | -0.28 | inactive |
| ZNF185 (zinc finger protein 185 with LIM domain) | -0.63 | -0.48 | -0.77 | -0.64 | inactive |
| H2AJ (H2A.J histone) | -0.06 | 0.3 | -0.26 | -0.23 | inactive |
| XAF1 (XIAP associated factor 1) | -1.4 | -0.86 | -1.61 | -1.71 | inactive |
| TMBIM6 (transmembrane BAX inhibitor motif containing 6) | -0.03 | 0.1 | 0.09 | -0.28 | inactive |
| TRMT10C (tRNA methyltransferase 10C, mitochondrial RNase P subunit) | -0.6 | -0.74 | -0.61 | -0.47 | inactive |
| TUBA8 (tubulin alpha 8) | -0.17 | 0.13 | -0.32 | -0.33 | inactive |
| LIPF (lipase F, gastric type) | -0.61 | -0.6 | -0.56 | -0.68 | inactive |

3 entries from above, ordered by “z-score, replicate A”, high to low.
| gene symbol | mean z-score | z-score, replicate A | z-score, replicate B | z-score, replicate C | outcome |
| --- | --- | --- | --- | --- | --- |
| ZNF653 (zinc finger protein 653) | 1.22 | 1.62 | 1.15 | 0.89 | inactive |
| OR3A2 (olfactory receptor family 3 subfamily A member 2) | -0.01 | -0.07 | -0.3 | 0.34 | inactive |
| BKGD (beta-keto-L-gulonate decarboxylase) | -0.45 | -0.85 | -0.48 | -0.02 | inactive |
